Results of unrelated studies side by side (data: NIAID ChemDB).

Shared fields: tests in culture; agent: Rhinovirus; cells: HeLa; measure: EC50

ECn is the concentration giving n% inhibition of infection, replication or growth. Neighbouring rows are from separate reports.

Brc1cnc2c(c1)C=CC(c1ccccc1)O2 ; strain or isolate: TYPE 9 ; read by: cytopathic effect ; result: >3.47 µM
COc1ccc(C(=O)CCCCOc2c(Cl)cc(C3=NCCO3)cc2Cl)cc1 ; strain or isolate: Serotype 14 ; read by: cytopathic effect ; result: >237 µM
CON[C@@H](Cc1ccccc1)C(=O)C(=O)/C=C/[C@H](CCS(C)(=O)=O)NC(=O)OCc1ccccc1 ; strain or isolate: TYPE 14 ; read by: plaque count ; result: >10 µg/mL
Cc1ccc(C(=O)CCCCOc2ccc(C3=NCCO3)cc2)cc1Cl ; strain or isolate: Serotype 2 ; read by: cytopathic effect ; result: >269 µM
O=c1c(Cc2ccc(Cl)cc2)coc2cc(Cl)cc(Cl)c12 ; strain or isolate: TYPE 1B ; read by: plaque count ; result: 3.9 µM
CON[C@@H](Cc1ccccc1)C(=O)C(=O)/C=C/[C@H](CCC(N)=O)NC(=O)OCc1ccccc1 ; strain or isolate: TYPE 14 ; read by: plaque count ; result: 3.2 µg/mL
O=C1c2ccccc2OCC1Cc1ccc(Cl)cc1 ; strain or isolate: TYPE 1B ; read by: plaque count ; result: 1.23 µM
COc1ccc(C(C(N)=O)c2ccc3nc(N)n(S(=O)(=O)C(C)C)c3c2)cc1F ; strain or isolate: 1059 (serotype 14) ; read by: plaque count ; result: 0.05 µg/mL
CCOC(=O)c1ccc(OCCCCC(=O)c2ccc(C)s2)cc1 ; strain or isolate: TYPE 14 ; read by: cytopathic effect ; result: 1.8 µM
Cc1cc(CCCOc2c(C)cc(-c3nnc(C)o3)cc2C)on1 ; strain or isolate: serotype 2 1A 1B 6 14 21 22 15 25 30 50 67 89 86 41 ; read by: plaque count ; result: 0.026 µg/mL
Cc1ccc(C(=O)CCCCCCOc2ccc(C3=NC(C)CO3)cc2)s1 ; strain or isolate: TYPE 2 ; read by: cytopathic effect ; result: 1.29 µM
CCOC(=O)/C=C/[C@H](CCC(N)=O)NC(=O)[C@H](Cc1ccccc1)NC(=O)OC(C)(C)C ; strain or isolate: TYPE 14 ; read by: plaque count ; result: >10 µg/mL
COc1cc(C(=O)Oc2c(-c3ccc(Cl)c(Cl)c3)oc3ccccc3c2=O)ccc1OC(C)=O ; strain or isolate: Serotype 14 ; read by: plaque count ; result: >1.56 µM
COc1ccc(OCCCCCCn2ccnc2)c(Cl)c1 ; strain or isolate: TYPE 1A ; read by: plaque count ; result: 29.1 µM
O=C1/C(=C/c2ccc(Cl)cc2)COc2ccccc21 ; strain or isolate: TYPE 1B ; read by: plaque count ; result: 3.4 µM
Cc1ccc(C(=O)CCCCOc2ccc(C3=NCCO3)cc2)s1 ; strain or isolate: TYPE 2 ; read by: cytopathic effect ; result: 1.31 µM
Cc1cc(CCCOc2c(C)cc(-c3noc(C)n3)cc2C)on1 ; strain or isolate: serotype 2 1A 1B 6 14 21 22 15 25 30 50 67 89 86 41 ; read by: plaque count ; result: 0.012 µg/mL
CCON[C@H](C(=O)N[C@@H](CC(C)C)C(=O)N[C@@H](Cc1ccccc1)C(=O)C(=O)/C=C/[C@H](CCC(N)=O)NC(=O)OC(C)(C)C)C(C)C ; strain or isolate: TYPE 14 ; read by: plaque count ; result: 0.41 µg/mL
COc1cc(C(=O)Oc2c(-c3ccc(Cl)cc3)oc3ccccc3c2=O)cc(OC)c1O ; strain or isolate: Serotype 14 ; read by: plaque count ; result: >1.56 µM
Clc1ccc(C2CCc3ccccc3O2)c(Cl)c1 ; strain or isolate: Serotype 1B ; read by: plaque count ; result: 0.025 µM
COc1cc(/C=C/C(=O)Oc2c(-c3ccc(Cl)c(Cl)c3)oc3ccccc3c2=O)ccc1OC(C)=O ; strain or isolate: Serotype 1B ; read by: plaque count ; result: >0.39 µM
CN=C(c1ccccc1)c1ccc2nc(N)n(S(=O)(=O)C(C)C)c2c1 ; strain or isolate: TYPE 16 ; read by: cytopathic effect / XTT ; result: 0.04 µg/mL
Cc1ccc(C(=O)CCCCOc2ccc(C3=N[C@@H](C)CO3)cc2)s1 ; strain or isolate: TYPE 2 ; read by: cytopathic effect ; result: 2.8 µM
CCOC(=O)/C=C/[C@H](CCC(N)=O)NC(=O)OCc1ccccc1 ; strain or isolate: TYPE 14 ; read by: plaque count ; result: >10 µg/mL
CS(=O)(=O)c1ccc(Oc2ccc(C(=O)c3ccccc3)cc2)nc1 ; strain or isolate: TYPE 9 ; read by: cytopathic effect ; result: 5 µg/mL
COc1ccc(CC2COc3ccccc3C2=O)cc1 ; strain or isolate: TYPE 1B ; read by: plaque count ; result: 5.98 µM
Cc1ccc(C(=O)CCCCOc2ccc(C#N)cc2)cc1 ; strain or isolate: Serotype 14 ; read by: cytopathic effect ; result: 43.3 µM
N#Cc1cc([N+](=O)[O-])ccc1Oc1ccc(Cl)c(Cl)c1 ; strain or isolate: TYPE 2 ; read by: cytopathic effect ; result: 0.1 µg/mL
CC(C)S(=O)(=O)n1c(N)nc2ccc(C(C(N)=O)c3cc(F)ccc3F)cc21 ; strain or isolate: 1059 (serotype 14) ; read by: plaque count ; result: 0.08 µg/mL
NC(=O)CCC(/C=C/S(=O)(=O)c1ccccc1)NC(=O)[C@H](Cc1ccccc1)NC(=O)OCc1ccccc1 ; strain or isolate: TYPE 14 ; read by: plaque count ; result: >10 µg/mL
O=C(CCCCOc1ccc(C2=NCCO2)cc1)c1ccccc1 ; strain or isolate: Serotype 2 ; read by: cytopathic effect ; result: 34 µM
CNC(=O)C(c1ccc2nc(N)n(S(=O)(=O)C(C)C)c2c1)c1cc(F)ccc1F ; strain or isolate: 1059 (serotype 14) ; read by: plaque count ; result: 0.06 µg/mL
O=C(/C=C(\O)c1ccccc1O)/C=C/c1ccc([N+](=O)[O-])cc1 ; strain or isolate: Serotype 14 ; read by: plaque count ; result: >6.25 µM
COc1cc(C(=O)Oc2c(-c3ccc(Cl)c(Cl)c3)oc3ccccc3c2=O)cc(OC)c1OC(C)=O ; strain or isolate: Serotype 14 ; read by: plaque count ; result: >6.25 µM
CCOC(=O)c1ccc(OCCCCC(=O)c2ccc(OC)cc2)cc1 ; strain or isolate: Serotype 2 ; read by: cytopathic effect ; result: 10.1 µM
O=C(c1ccccc1)c1ccc(Oc2ccc(S(=O)(=O)Cc3ccccc3)cn2)cc1 ; strain or isolate: TYPE 1A ; read by: cytopathic effect ; result: >10 µg/mL
Nc1ccc(/C=C/c2cc(=O)c3ccccc3o2)cc1 ; strain or isolate: Serotype 1B ; read by: plaque count ; result: 15.06 µM
CCC1COC(c2ccc(OCCCCC(=O)c3ccc(C)s3)cc2)=N1 ; strain or isolate: TYPE 2 ; read by: cytopathic effect ; result: 2.15 µM
O=c1c(Cc2ccc(Cl)cc2)coc2ccccc12 ; strain or isolate: TYPE 14 ; read by: plaque count ; result: >25 µM
NC(=O)C(c1cccc(F)c1)c1ccc2nc(N)n(S(=O)(=O)N3CCOCC3)c2c1 ; strain or isolate: 1059 (serotype 14) ; read by: plaque count ; result: 0.08 µg/mL
O=C(CCCCOc1c(Cl)cc(C2=NCCO2)cc1Cl)c1ccc(Cl)cc1 ; strain or isolate: Serotype 2 ; read by: cytopathic effect ; result: >35 µM
CON[C@H](CCC(=O)OC(C)(C)C)C(=O)N[C@H](C(=O)N[C@@H](CC(C)C)C(=O)N[C@@H](Cc1ccccc1)C(=O)C(=O)/C=C/[C@H](CCC(N)=O)NC(=O)OC(C)(C)C)C(C)C ; strain or isolate: TYPE 14 ; read by: plaque count ; result: 4.5 µg/mL
COC(=O)C(Cc1ccc(OCCCCCCC(=O)c2ccc(C)s2)cc1)NC(C)=O ; strain or isolate: TYPE 2 ; read by: cytopathic effect ; result: >83 µM
CC(C)S(=O)(=O)n1c(N)nc2ccc(C(C(N)=O)c3ccccc3)cc21 ; strain or isolate: 1059 (serotype 14) ; read by: plaque count ; result: 0.04 µg/mL
CCc1cc(CCCOc2c(C)cc(-c3nnc(C)o3)cc2C)on1 ; strain or isolate: serotype 2 1A 1B 6 14 21 22 15 25 30 50 67 89 86 41 ; read by: plaque count ; result: 0.042 µg/mL
O=C1/C(=C/c2ccc(Cl)cc2)COc2cc(Cl)cc(Cl)c21 ; strain or isolate: TYPE 14 ; read by: plaque count ; result: >6.25 µM
Cc1cc(CCCCCOc2c(Cl)cc(C3=NCCO3)cc2Cl)on1 ; strain or isolate: TYPE 19 ; read by: plaque count ; result: 0.044 µg/mL
O=C(/C=C(\O)c1cc(Cl)ccc1O)/C=C/c1ccc(Cl)cc1 ; strain or isolate: Serotype 1B ; read by: plaque count ; result: 5.34 µM

For reference, 5 entries again:

| smiles | strain or isolate | read by | result |
|---|---|---|---|
| Cc1cc(CCCOc2c(C)cc(-c3nnc(C)o3)cc2C)on1 | serotype 2 1A 1B 6 14 21 22 15 25 30 50 67 89 86 41 | plaque count | 0.026 µg/mL |
| CCOC(=O)c1ccc(OCCCCC(=O)c2ccc(OC)cc2)cc1 | Serotype 2 | cytopathic effect | 10.1 µM |
| CNC(=O)C(c1ccc2nc(N)n(S(=O)(=O)C(C)C)c2c1)c1cc(F)ccc1F | 1059 (serotype 14) | plaque count | 0.06 µg/mL |
| NC(=O)CCC(/C=C/S(=O)(=O)c1ccccc1)NC(=O)[C@H](Cc1ccccc1)NC(=O)OCc1ccccc1 | TYPE 14 | plaque count | >10 µg/mL |
| CCC1COC(c2ccc(OCCCCC(=O)c3ccc(C)s3)cc2)=N1 | TYPE 2 | cytopathic effect | 2.15 µM |